{
  "source": "patent US20040086901A1",
  "about": "“Database for analyzing gene function and method of analyzing gene function by dspa” (priority 2000, published 2004)",
  "system": "MSSP-10 cells",
  "assay": "DSPA drug sensitivity pattern, MSSP-10 cells",
  "assay_type": "cell-based",
  "conditions": "drug sensitivity pattern of F25 + substance vs MSSP-10",
  "note": "No dose or concentration is given here for some results. Non-standard residues stand in square brackets, D forms with d. Residues, ends and D or L forms follow the SMILES beside them. Nle = CCCC[C@H](N)C(=O)O",
  "data": [
    {"smiles": "CC(=O)N[C@@H](CSC(=O)[C@]1([C@@H](O)C(C)C)NC(=O)[C@H](C)[C@@H]1O)C(=O)O", "note": "[lactacystin]", "values": [
      {"measurement": "correlation coefficient (r) with MSSP-10", "value": "−0.07"}
    ]},
    {"smiles": "C[C@@H](N)[C@H]1CC[C@H](C(=O)Nc2ccncc2)CC1", "note": "[Y27632]", "values": [
      {"measurement": "correlation coefficient (r) with MSSP-10", "value": "−0.11"}
    ]},
    {"smiles": "CC(C)(C)C(=O)Oc1ccc(S(=O)(=O)Nc2ccccc2C(=O)NCC(=O)O)cc1", "note": "[ONO5046]", "values": [
      {"measurement": "correlation coefficient (r) with MSSP-10", "value": 0.26}
    ]},
    {"smiles": "CCCC[C@@H](C=O)NC(=O)[C@H](CC(C)C)NC(=O)[C@H](CC(C)C)NC(C)=O", "note": "[ALLN] (Ac-Leu-Leu-[Nle]-aldehyde)", "values": [
      {"measurement": "correlation coefficient (r) with MSSP-10", "value": "−0.44"}
    ]}
  ]
}
